Reference: patent US7927820B2 (priority 2004, dated 2011)

Biological target: N-type calcium channels in cell membranes isolated from rat brain (Rattus norvegicus, UniProt Q02294)
Assay type: binding
Settings: read-out: Affinity constant (Ki); pH 7.4

Substance | Ki [nM]
ω-conotoxin MVIIC | 3.97
ω-conotoxin GVIA | 0.00829
